# Replication capacity of HIV-1 mutants, integrase

Values reported by Al-Mawsawi et al. 2014 (doi:10.1186/s12977-014-0124-6).

Protein: integrase of HIV-1 NL4-3, numbered from its first residue. The source prints no sequence; the chain below is taken from UniProt P12497, a closely related isolate, and fits the source at the 252 positions it covers.
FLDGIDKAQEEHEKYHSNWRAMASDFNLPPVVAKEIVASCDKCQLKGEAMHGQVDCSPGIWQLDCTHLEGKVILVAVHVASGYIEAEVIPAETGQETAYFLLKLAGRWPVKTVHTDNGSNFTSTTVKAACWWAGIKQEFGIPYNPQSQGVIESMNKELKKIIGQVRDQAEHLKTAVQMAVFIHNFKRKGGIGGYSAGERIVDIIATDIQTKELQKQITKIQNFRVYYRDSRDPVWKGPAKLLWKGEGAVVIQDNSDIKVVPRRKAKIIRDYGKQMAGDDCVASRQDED
"Other frame" gives the effect on an overlapping gene as the source lists it; other overlaps (genes, RNA elements) are not shown.

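Seven fragments of pNL4-3 were mutated by error-prone PCR, and each virus pool was passaged in CEM T cells. The RC index is the frequency of a change after passage round 2 divided by its frequency in the plasmid library.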

RC index: lower means poorer replication; rough cut-offs are 0.1 (lethal) and 0.2 (tolerated). Each entry names the wild-type residue, its position and the residue put in its place. Input reads are the counts in the plasmid library.

mutation	base	other frame	input reads	RC index
I251K	T4981A	none	197	0.0228
I251T	T4981C	none	170	0.0792
Q252K	C4983A	none	60	0.0748
Q252R	A4984G	none	343	0.0589
D253G	A4987G	none	143	0.0157
D253V	A4987T	none	187	0.0600
D253E	T4988A	none	232	0.0387
N254D	A4989G	none	221	0.102
N254S	A4990G	none	397	0.0735
N254I	A4990T	none	356	0.0441
S255C	A4992T	none	333	0.0135
S255N	G4993A	none	309	0.145
S255R	T4994A	none	300	0.0374
D256V	A4996T	none	370	0.0364
I257V	A4998G	none	271	0.0414
I257K	T4999A	none	322	0.118
I257M	A5000G	none	190	0.0827
K258Q	A5001C	none	86	0.0261
K258E	A5001G	none	304	0.0221
K258T	A5002C	none	238	0.0283
K258R	A5002G	none	283	0.0238
V259L	G5004C	none	42	0.160
V259A	T5005C	none	177	0.101
V260L	G5007T	none	137	0.0655
V260E	T5008A	none	238	0.0566
P261Q	C5011A	none	88	0.255
R262G	A5013G	none	293	0.0536
R262I	G5014T	none	241	0.102
R262S	A5015T	none	199	0.0226
K264R	A5020G	none	152	0.0591
K264I	A5020T	none	343	0.0196
A265V	C5023T	none	376	0.203
K266E	A5025G	none	266	0.160
I267F	A5028T	none	346	0.0584
I267T	T5029C	none	277	0.113
I268F	A5031T	none	206	0.0327
I268N	T5032A	none	263	0.0512
R269W	A5034T	none	346	0.0519
R269K	G5035A	none	185	0.364
D270N	G5037A	none	182	0.259
D270H	G5037C	none	51	0.0440
D270E	T5039A	none	295	0.0533
K273E	A5046G	Vif silent	330	0.0884
Q274P	A5050C	Vif silent	76	0.0886
D278Y	G5061T	Vif silent	69	0.423
C280R	T5067C	Vif silent	320	0.0701
V281M	G5070A	Vif silent	421	0.133
D286N	G5085A	Vif silent	161	0.524
D288N	G5091A	Vif silent	226	0.328

Extract of 6 entries:

I251T (base T4981C, input reads 170): 0.0792.
D256V (base A4996T, input reads 370): 0.0364.
P261Q (base C5011A, input reads 88): 0.255.
R269K (base G5035A, input reads 185): 0.364.
Q274P (base A5050C, other frame Vif silent, input reads 76): 0.0886.
D253V (base A4987T, input reads 187): 0.0600.

Nucleotide positions follow pNL4-3. The authors read an index above 1 as above wild type (1.9% of all changes in the genome). Since each clone held several changes (about five per kb), neutral changes can read low.